Read-outs that look alike come from different tables or passages of the source.
What was measured:
[1] = tested on: mutant HIV-1 I50V #1 (M46I/I47V/I50V); format: cell-based
[2] = tested on: mutant HIV-1 I50V #2 (L10I/M46I/I50V); format: cell-based; details: EC50 of mutant L10I/M46I/I50V relative to wild type; class symbols
[3] = EC50 of mutant M46I/I47V/I50V relative to wild type, class symbols

| SMILES | I50V (#1) fold change [1, 3] | I50V (#1) fold change ([1]; mutant I50V (#1) vs wild type) | I50V (#2) fold change [2] |
| --- | --- | --- | --- |
| CCOP(=O)(Cc1ccc2c(c1)CCN(CC(NC(=O)OC1COC3OCCC13)C(O)CN(CC(C)C)S(=O)(=O)c1ccc(OC)cc1)C2)OCC (stereo not shown) | + (>3 to ≦10) |  |  |
| CCOC(=O)C(C)OP(=O)(Cc1ccc2c(c1)CCN(CC(NC(=O)OC1COC3OCCC13)C(O)CN(CC(C)C)S(=O)(=O)c1ccc(OC)cc1)C2)Oc1ccccc1 (stereo not shown) | + (>3 to ≦10) |  |  |
| CCOC(=O)C(C)OP(=O)(COc1ccc2c(c1)CCN(CC(NC(=O)OC1COC3OCCC13)C(O)CN(CC(C)C)S(=O)(=O)c1ccc(OC)cc1)C2)Oc1ccccc1 (stereo not shown) | + (>3 to ≦10) |  |  |
| CCOP(=O)(CNc1ccc(CC(NC(=O)OC2COC3OCCC23)C(O)CN(CC(C)C)S(=O)(=O)c2ccc(OC)cc2)cc1)OCC (stereo not shown) | − (≦3) |  |  |
| COc1ccc(S(=O)(=O)N(CC(C)C)CC(O)C(Cc2ccc(NCP(=O)(OCc3ccccc3)OCc3ccccc3)cc2)NC(=O)OC2COC3OCCC23)cc1 (stereo not shown) | + (>3 to ≦10) |  |  |
| CCOC(=O)C(C)OP(=O)(CN1CC=C(CC(NC(=O)OC2COC3OCCC23)C(O)CN(CC(C)C)S(=O)(=O)c2ccc(OC)cc2)CC1)Oc1ccccc1 (stereo not shown) |  | − (≦3) |  |
| COc1ccc(S(=O)(=O)N(CC(C)C)CC(O)C(CC2=CCN(CP(=O)(O)OC(C)C(=O)O)CC2)NC(=O)OC2COC3OCCC23)cc1 (stereo not shown) |  | − (≦3) |  |
| COc1ccc(S(=O)(=O)N(CC(C)C)CC(O)C(Cc2ccc(OCc3ccccc3)cc2)NC(=O)OC2COC3OCCC23)cc1 (stereo not shown) |  | − (≦3) |  |
| COc1ccc(S(=O)(=O)N(CCN2CCOCC2)CC(O)C(Cc2ccc(OCP(=O)(O)O)cc2)NC(=O)OC2COC3OCCC23)cc1 (stereo not shown) |  | + (>3 to ≦10) |  |
| COc1ccc(S(=O)(=O)N(CCN2CCOCC2)CC(O)C(Cc2ccc(OCP(=O)(OCc3ccccc3)OCc3ccccc3)cc2)NC(=O)OC2COC3OCCC23)cc1 (stereo not shown) |  | + (>3 to ≦10) |  |
| CCOC(=O)C(C)OP(=O)(Cc1ccc2c(c1)CCN(C[C@H](NC(=O)O[C@H]1CO[C@H]3OCC[C@H]31)[C@H](O)CN(CC(C)C)S(=O)(=O)c1ccc(OC)cc1)C2)Oc1ccccc1 (stereo partly shown) |  | + + |  |
| COc1ccc(S(=O)(=O)N(CC(C)C)CC(O)C(Cc2ccc(NCP(=O)(O)O)cc2)NC(=O)OC2COC3OCCC23)cc1 (stereo not shown) |  | + + |  |
| CC(C)CN(CC(O)C(Cc1ccc(OCP(=O)(O)O)cc1)NC(=O)OC1COC2OCCC12)S(=O)(=O)c1ccc(N)cc1 (stereo not shown) |  | + (>3 to ≦10) |  |
| CC(C)CN(CC(O)C(Cc1ccc(OCP(=O)(OCc2ccccc2)OCc2ccccc2)cc1)NC(=O)OC1COC2OCCC12)S(=O)(=O)c1ccc(N)cc1 (stereo not shown) |  | − (≦3) |  |
| CC(C)CN(CC(O)C(Cc1ccc(OCP(=O)(OCc2ccccc2)OCc2ccccc2)cc1)NC(=O)OC1COC2OCCC12)S(=O)(=O)c1cccc(N)c1 (stereo not shown) |  | − (≦3) |  |
| CCCCOC(=O)C(C)OP(=O)(COc1ccc(C[C@H](NC(=O)O[C@H]2CO[C@H]3OCC[C@H]32)[C@H](O)CN(CC(C)C)S(=O)(=O)c2cccc(N)c2)cc1)Oc1ccccc1 (stereo partly shown) |  | − (≦3) |  |
| CC(C)CN(CC(O)C(Cc1ccccc1)NC(=O)OC1COC2OCCC12)S(=O)(=O)c1ccc(O)cc1 (stereo not shown) |  | − (≦3) |  |
| CC(C)CN(CC(O)C(Cc1ccccc1)NC(=O)OC1COC2OCCC12)S(=O)(=O)c1ccc(OCP(=O)(O)O)cc1 (stereo not shown) |  | − (≦3) |  |
| CC(C)CN(CC(O)C(Cc1ccccc1)NC(=O)OC1COC2OCCC12)S(=O)(=O)c1cccc(O)c1 (stereo not shown) |  | + (>3 to ≦10) |  |
| COc1ccc(S(=O)(=O)N(CC(C)C)CC(O)C(Cc2ccccc2)NC(=O)OC2COC3OCCC23)cc1O (stereo not shown) |  | − (≦3) |  |
| COc1ccc(S(=O)(=O)N(CC(C)C)CC(O)C(Cc2ccccc2)NC(=O)OC2COC3OCCC23)cc1OCP(=O)(O)O (stereo not shown) |  | + (>3 to ≦10) |  |
| CCOP(=O)(COc1cc(S(=O)(=O)N(CC(C)C)CC(O)C(Cc2ccccc2)NC(=O)OC2COC3OCCC23)ccc1OC)OCC (stereo not shown) |  | + (>3 to ≦10) |  |
| CCOP(=O)(COc1cc(S(=O)(=O)N(CC(C)C)CC(O)C(Cc2ccccc2)NC(=O)OC2COC3OCCC23)ccc1O)OCC (stereo not shown) |  | + (>3 to ≦10) |  |
| COC(=O)N[C@H](C(=O)N[C@@H](Cc1ccccc1)[C@@H](O)CN(Cc1ccc(-c2ccccn2)cc1)NC(=O)[C@@H](NC(=O)OC)C(C)(C)C)C(C)(C)C [Atazanavir, reference compound] | − (≦3) |  | − (≦3) |
| CCCCOC(=O)C(C)NP(=O)(COc1ccc(CC(NC(=O)OC2COC3OCCC23)C(O)CN(CC(C)C)S(=O)(=O)c2ccc(OC)cc2)cc1)Oc1ccccc1 (stereo not shown) [Example 30d] | − (≦3) |  |  |

| SMILES | I50V (#1) fold change [1, 3] | I50V (#1) fold change ([1]; mutant I50V (#1) vs wild type) | I50V (#2) fold change [2] |
| --- | --- | --- | --- |
| CCOC(=O)C(C)NP(=O)(COc1ccc(CC(NC(=O)OC2COC3OCCC23)C(O)CN(CC(C)C)S(=O)(=O)c2ccc(OC)cc2)cc1)OCc1ccccc1 (stereo not shown) [Example 30e] | − (≦3) |  |  |
| COc1ccc(S(=O)(=O)N(CC(C)C)CC(O)C(Cc2ccc(OCP(=O)(Oc3ccccc3)OC(C)C(=O)OC(C)C)cc2)NC(=O)OC2COC3OCCC23)cc1 (stereo not shown) [Example 31a] | − (≦3) |  |  |
| Cc1cccc(C)c1OCC(=O)N[C@@H](Cc1ccccc1)[C@@H](O)C[C@H](Cc1ccccc1)NC(=O)[C@H](C(C)C)N1CCCNC1=O [Lopinavir, reference compound] | ++ (>10 to ≦30) |  | +++ (>30) |
| CC(C)CN(C[C@@H](O)[C@H](Cc1ccc(OCP(=O)(Oc2ccccc2)Oc2ccccc2)cc1)NC(=O)OC1CCOC1)S(=O)(=O)c1ccc(N)cc1 (stereo partly shown) [NH2, phenol] |  | + (>3 to ≦10) |  |
| CC(C)CN(C[C@@H](O)[C@H](Cc1ccc([N+](=O)[O-])cc1)NC(=O)O[C@H]1CO[C@H]2OCC[C@H]21)S(=O)(=O)c1ccc(OCP(=O)(Oc2ccccc2)Oc2ccccc2)cc1 [NO2, phenol] |  | − (≦3) |  |
| CC(C)CN(CC(O)C(Cc1ccc(O)cc1)NC(=O)OC1COC2OCCC12)S(=O)(=O)c1ccc(N)cc1 (stereo not shown) [OH, p-NH2] |  | − (≦3) |  |
| COc1ccc(S(=O)(=O)N(CC(C)C)C[C@@H](O)[C@H](Cc2ccc(OCP(=O)(OCc3ccccc3)OCc3ccccc3)cc2)NC(=O)OC2CCOC2)cc1 (stereo partly shown) [OMe, OBn] |  | + + |  |
| CCOP(=O)(COc1ccc(CC(NC(=O)OC2CCOC2)C(O)CN(CC(C)C)S(=O)(=O)c2ccc(OC)cc2)cc1)OCC (stereo not shown) [OMe, OEt] |  | + + + |  |
| COc1ccc(S(=O)(=O)N(CC(C)C)C[C@@H](O)[C@H](Cc2ccc(OCP(=O)(O)O)cc2)NC(=O)OC2CCOC2)cc1 (stereo partly shown) [OMe, OH] |  | + + + |  |
| COc1ccc(S(=O)(=O)N(CC(C)C)C[C@@H](O)[C@H](Cc2ccc(OCP(=O)(Oc3ccccc3)Oc3ccccc3)cc2)NC(=O)OC2CCOC2)cc1 (stereo partly shown) [OMe, phenol] |  | + + + |  |
| CCC[C@@]1(CCc2ccccc2)CC(O)=C([C@H](CC)c2cccc(NS(=O)(=O)c3ccc(C(F)(F)F)cn3)c2)C(=O)O1 [Tipranavir, reference compound] | − (≦3) |  | − (≦3) |
| COc1ccc(S(=O)(=O)N(CC(C)C)CC(O)C(Cc2ccc(OCP(=O)(O)O)cc2)NC(=O)OC2COC3OCCC23)cc1 (stereo not shown) [drawing 608 R1=OH R2=OH] | − (≦3) |  |  |
| CCCCOC(=O)C(CC)NP(=O)(COc1ccc(CC(NC(=O)OC2COC3OCCC23)C(O)CN(CC(C)C)S(=O)(=O)c2ccc(OC)cc2)cc1)NC(CC)C(=O)OCCCC (stereo not shown) [drawing 612 R1=Aba-Bu R2=Aba-Bu] | ++ (>10 to ≦30) |  |  |
| CCCCOC(=O)C(CC(C)C)NP(=O)(COc1ccc(CC(NC(=O)OC2COC3OCCC23)C(O)CN(CC(C)C)S(=O)(=O)c2ccc(OC)cc2)cc1)NC(CC(C)C)C(=O)OCCCC (stereo not shown) [drawing 612 R1=Leu-Bu R2=Leu-Bu] | + (>3 to ≦10) |  |  |
| CCNP(=O)(COc1ccc(CC(NC(=O)OC2COC3OCCC23)C(O)CN(CC(C)C)S(=O)(=O)c2ccc(OC)cc2)cc1)NCC (stereo not shown) [drawing 612 R1=NHEt R2=NHEt] | − (≦3) |  |  |
| CCOC(=O)C(NP(=O)(COc1ccc(CC(NC(=O)OC2COC3OCCC23)C(O)CN(CC(C)C)S(=O)(=O)c2ccc(OC)cc2)cc1)NC(C(=O)OCC)C(C)C)C(C)C (stereo not shown) [drawing 612 R1=Val-Et R2=Val-Et] | − (≦3) |  |  |
| CCOC(=O)C(C)OP(=O)(COc1ccc(CC(NC(=O)OC2COC3OCCC23)C(O)CN(CC(C)C)S(=O)(=O)c2ccc(OC)cc2)cc1)OC(C)C(=O)OCC (stereo not shown) [drawing 613 R1=Lac-Et R2=Lac-Et] | − (≦3) |  |  |
| COc1ccc(S(=O)(=O)N(CC(C)C)CC(O)C(Cc2ccc(OCP(=O)(NC(C)C(=O)OC(C)C)Oc3ccccc3)cc2)NC(=O)OC2COC3OCCC23)cc1 (stereo not shown) [drawing 614 R1=OPh R2=Ala-iPr] | − (≦3) |  |  |
| CCCCOC(=O)CNP(=O)(COc1ccc(CC(NC(=O)OC2COC3OCCC23)C(O)CN(CC(C)C)S(=O)(=O)c2ccc(OC)cc2)cc1)Oc1ccccc1 (stereo not shown) [drawing 614 R1=OPh R2=Gly-Bu] | − (≦3) |  |  |
| CCOC(=O)COP(=O)(COc1ccc(CC(NC(=O)OC2COC3OCCC23)C(O)CN(CC(C)C)S(=O)(=O)c2ccc(OC)cc2)cc1)Oc1ccccc1 (stereo not shown) [drawing 615 R1=OPh R2=Glc-Et] | − (≦3) |  |  |
| CCOP(=O)(CCNCc1ccc(CC(NC(=O)OC2COC3OCCC23)C(O)CN(CC(C)C)S(=O)(=O)c2ccc(OC)cc2)cc1)OCC (stereo not shown) [drawing 619 R1=Et R2=Et] |  |  | − (≦3) |
| COc1ccc(S(=O)(=O)N(CC(C)C)CC(O)C(Cc2ccc(CNCCP(=O)(O)O)cc2)NC(=O)OC2COC3OCCC23)cc1 (stereo not shown) [drawing 619 R1=H R2=H] |  |  | + (>3 to ≦10) |
| COc1ccc(S(=O)(=O)N(CC(C)C)CC(O)C(CC2=CCN(CCP(=O)(OCc3ccccc3)OCc3ccccc3)CC2)NC(=O)OC2COC3OCCC23)cc1 (stereo not shown) [drawing 673] |  | − (≦3) |  |
| CCCCOC(=O)C(C)OP(=O)(COc1ccc(CC(NC(=O)OC2COC3OCCC23)C(O)CN(CC(C)C)S(=O)(=O)c2cccc(N)c2)cc1)Oc1ccccc1 (stereo not shown) [drawing 719] |  | − (≦3) |  |

From patent US20040121316A1 (priority 2002, published 2004)
